# Library screen at single concentrations

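Growth of Mycobacterium tuberculosis over 3 days (7H9 medium with glucose and tyloxapol); the read-out is not stated. Compounds at 50 µM. Direction is inferred from retests: higher values go with more growth inhibition. Size under these conditions: about 69,000 compounds, about 760 of them at 50% or above in at least one test.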

Values are the deposited “Percent Effect”, in %. How 0% and 100% were set is not recorded. Most values in the screen are low, and negative values occur. This is part of a subset picked to be rich in strong results. Two or more numbers in one place are separate tests of the same structure; such repeats can differ widely.

SMILES: CCC(CNC(=O)c1ccco1)N1CCc2ccccc2C1 (stereo not given)
effect: 16.92 & 1.091

SMILES: O=C(CCNc1ncccn1)NCCc1ccc(Cl)s1
effect: -8.896

SMILES: NC(=O)NC(=O)CCN1CCCN(c2nccs2)CC1
effect: 79.74

SMILES: CCc1ccc2nc(NCC(O)CO)cc(C)c2c1 (stereo not given)
effect: -6.595

SMILES: COCCN(C/C=C/c1ccccc1)Cc1nccs1
effect: 14.41

SMILES: OCC1CCCN1c1cc(N2CCc3ccccc3C2)ncn1 (stereo not given)
effect: -1.651

SMILES: c1csc(CN2CCCN(c3ccc(Cn4ccnc4)cn3)CC2)c1
effect: 13.73

SMILES: O=C(c1csc2nc(-c3ccc(Cl)cc3)cn12)N1CCCC(CO)C1 (stereo not given)
effect: 26.96

SMILES: CCCc1cc(C(=O)N2Cc3ccccc3C2)[nH]n1
effect: -13.39

SMILES: FC1(F)CCN(Cc2cccnc2)CC12CCN(c1cnccn1)C2.O=C(O)C(F)(F)F.O=C(O)C(F)(F)F.O=C(O)C(F)(F)F (stereo not given)
effect: 19.47

SMILES: CCn1cc(CNc2ccc(N(C)CCOC)cn2)cn1
effect: -68.44

SMILES: Cc1nc(C2CCCN2Cc2cc(Cl)c3c(c2)OCCCO3)no1 (stereo not given)
effect: 56.52

SMILES: Br.O=C(CN(C1=NCCCC1)c1ccccc1)c1ccc2c(c1)OCCO2
effect: 27.43

SMILES: O=C(NCCN1CCOC1=O)c1cc(-c2ccccc2)on1
effect: -5.156 & -50.55

SMILES: CC(CO)NS(=O)(=O)c1cccc(C(C)C)c1 (stereo not given)
effect: 18.84 & 5.916

SMILES: Cc1nc(C(Cc2ccsc2)NC(=O)CCN2CCOCC2)sc1C (stereo not given)
effect: -7.739

SMILES: N#Cc1ccc(NC2CCN(c3ncccn3)CC2)cc1Cl
effect: 3.943

SMILES: CNS(=O)(=O)CC1CCCN1c1ccccn1 (stereo not given)
effect: -31.76

SMILES: COCCNc1nnc(-c2ccc(C)nc2)s1
effect: -23.9

SMILES: CCS(=O)(=O)N1CCC(NCC2CNc3cc(C)nn3C2)CC1 (stereo not given)
effect: 5.796 & -59.8

SMILES: Cc1ccc(CN2CCC3(CC(=O)N(c4ccc5c(c4)OCO5)C3)C2)o1 (stereo not given)
effect: 24.65

SMILES: Cc1ccc(C(=O)NCCCNS(C)(=O)=O)cc1-n1cccc1
effect: 14.07 & 4.882

SMILES: Cc1cc(CN(C)C2CCN(c3cccc(-c4cscn4)c3)CC2)on1
effect: 53.3

SMILES: CC1c2ccsc2CCN1Cc1cc2c(cc1O)OCO2 (stereo not given)
effect: 10.31

SMILES: CCc1cnc(N2CCN(Cc3ccon3)CC2)s1
effect: 53.93

SMILES: Cc1ccc(CN2CC(C(=O)NC(C)C)C3(CCOCC3)C2)s1.O=C(O)C(F)(F)F (stereo not given)
effect: 3.553 & -0.8097

SMILES: Cc1ccc(C(O)CNC(=O)c2cccnc2O)cc1 (stereo not given)
effect: 25.32

SMILES: CN(Cc1cnn(C)c1)C(=O)NCc1cc(Br)cs1
effect: 6.944

SMILES: Cc1c(C(=O)NCC(F)(F)F)nnn1-c1ccccc1Cl
effect: 18.28

SMILES: COc1cccc(C(=O)Nc2cc(CC(C)C)nn2C)c1
effect: 33.49

SMILES: O=C(Cn1cc(Cl)cn1)Nc1ccc2c(c1)OCCCO2
effect: -2.336

SMILES: Cn1ccnc1-c1ccc(NCCC2COc3ccccc3O2)nn1 (stereo not given)
effect: 56.79

SMILES: Cc1ccc(CN(CCCN(C)C)Cc2cnc(N(C)C)nc2)o1.O=C(O)CC(O)(CC(=O)O)C(=O)O
effect: -29.93

SMILES: CCc1ccc2nc(-c3cnn(C)c3)cc(C(=O)N3CCOCC3)c2c1
effect: -10.4

SMILES: CC(C)c1cc(CN2CCNCC2)no1
effect: 85.24

SMILES: O=C(NCCc1ccccn1)N1CCSC2(CCCCC2)C1
effect: 26.98

SMILES: O=C(Nc1ccccn1)C1(n2cnnn2)CCCCC1
effect: 11.11

SMILES: COc1cc(Oc2ccc(C(F)(F)F)cn2)ccc1CN1CCCC1
effect: 72.4

SMILES: CC(Nc1cccc(COCc2ccco2)c1)C(=O)NC(N)=O (stereo not given)
effect: 11.64

SMILES: [H][C@]12CC[C@]([H])(CN(Cc3snnc3C)C1)N(Cc1ccccc1)C2
effect: -12.07

SMILES: CC(=O)Nc1nc(-c2ccccc2)c[nH]1
effect: -10.64

SMILES: CN(C)c1cc(C2CCCN(C(=O)c3noc4c3CCCC4)C2)ccn1 (stereo not given)
effect: 79.79

SMILES: Cc1cnn(C2CN(c3ccccc3S(=O)(=O)C(F)(F)F)C2)c1
effect: 53.78

SMILES: CC(C)(C(=O)NCC(=O)N1CCCC1)c1ccccc1F
effect: -11.31

SMILES: OCC1CCCN1c1cc(N2CCC(OC3CCCC3)CC2)ncn1 (stereo not given)
effect: 71.33

SMILES: COc1cccc(COCC(=O)N2CCCCCC2)c1
effect: -2.463

SMILES: CC(C)(NCC(=O)NCC(F)(F)F)c1ccc2c(c1)OCCO2
effect: 3.565

SMILES: CC(O)(CNc1ccccn1)c1ccccc1 (stereo not given)
effect: -37.33

SMILES: O=C(CN1CCc2ccccc21)Nc1ccc(OC(F)F)cc1
effect: -0.5754 & 5.752

SMILES: CCn1nc(C)cc1C(=O)NCc1nc(C)cc(C)n1
effect: 18.24

SMILES: O=C1CCC2(CCN(Cc3cscn3)CC2)CN1CCCO
effect: 62.02

SMILES: CNS(=O)(=O)CCCn1nnc(-c2ccc(F)c(C)c2)n1
effect: 30.27

SMILES: Cc1cnc2c(S(=O)(=O)NCC3CCN(C4CC4)C3)cccc2c1 (stereo not given)
effect: 56.52

SMILES: CNc1cc2c(nn1)CCN(C(=O)c1cccc3c1OCO3)C2
effect: 16.8

SMILES: O=S(=O)(CCO)Cc1ccc(OCC(F)(F)F)cc1
effect: 15.59

SMILES: Cc1[nH]/c(=N\C(=O)c2csc(NC3CC3)n2)sc1C
effect: -18.85

SMILES: COc1ccc(C)cc1C(C)NC(=O)CCn1cncn1 (stereo not given)
effect: -10.75

SMILES: CC(=O)Nc1nc(C)c(S(=O)(=O)NCCc2ccccn2)s1
effect: -8.195

SMILES: Cc1ncc(-c2ccnc(N3CCN(C)CC3)n2)c(-c2cccnc2)n1
effect: -22.71

SMILES: Cc1ccccc1NC1CCN(C(=O)CCc2ccco2)CC1
effect: 44.67 & 51.23

For reference, 6 entries once more:

With OCC1CCCN1c1cc(N2CCc3ccccc3C2)ncn1 (stereo not given) the screen gave -1.651%.
With O=C1CCC2(CCN(Cc3cscn3)CC2)CN1CCCO the screen gave 62.02%.
With CCc1ccc2nc(-c3cnn(C)c3)cc(C(=O)N3CCOCC3)c2c1 the screen gave -10.4%.
With Cc1ccc(CN2CC(C(=O)NC(C)C)C3(CCOCC3)C2)s1.O=C(O)C(F)(F)F (stereo not given) the screen gave 3.553% & -0.8097%.
With COc1ccc(C)cc1C(C)NC(=O)CCn1cncn1 (stereo not given) the screen gave -10.75%.
With COc1cccc(C(=O)Nc2cc(CC(C)C)nn2C)c1 the screen gave 33.49%.

From ChEMBL document CHEMBL3988442, “University of Dundee, Small-Polar-MMV Screening Library” (2021).